PubChem BioAssay AID1259414, Drosophila RNAi Screening Center – 2018

Purpose: 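Fly genes that alter Wolbachia amount inside host cells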 (primary screen)
System: Drosophila JW18 cells infected with Wolbachia
Reagent: long dsRNA against Drosophila genes, 0.25 µg dsRNA per well of a 384-well plate
Duration: 5 days
Challenge: cells persistently infected with Wolbachia before knock-down; no added drug
Detection: 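Imaged fluorescence in situ signal for Wolbachia 23S rRNA per DAPI-counted host cell, given as a robust z-score within each plate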
Direction: Wolbachia per cell robust z: higher = more Wolbachia per host cell than the plate typical
Call rule: 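Hit when robust z is 1.5 or more, or -1.5 or less, in at least two of three replicates; excludes dsRNAs with several or no targets, genes not expressed in JW18 and well A1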
In all, the deposit lists about 24,000 reagents; this is a random part of those with a known target gene and a result. Of all reagents, about 1,210 (5%) are marked active. 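Inactive calls also include excluded dsRNAs with several or no targets, genes unexpressed in JW18, and well A1, regardless of score.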 The numbers tell different reagents against one gene apart. Names joined by + are all predicted targets of the reagent.

no.	gene knocked down	reagent no.	Wolbachia per cell robust z, rep 1	Wolbachia per cell robust z, rep 2	Wolbachia per cell robust z, rep 3	call
1	betaggt-I (beta subunit of type I geranylgeranyl transferase)	1	-0.779	-5.57	-0.293	inactive
2	RpLP0-like (Ribosomal protein LP0-like)	1	-8.04	0.305	-0.712	inactive
3	RpLP0-like (Ribosomal protein LP0-like)	2	-0.115	0.0293	-0.47	inactive
4	CG12935 + Nop10	1	-0.407	-5.2	0.81	inactive
5	lambdaTry	1	-0.196	-1.45	-2.77	inactive
6	Elp5 (Elongator complex protein 5)	1	0.095	-0.353	-0.239	inactive
7	FoxP (Forkhead box P)	1	-4.98	-0.191	-2.83	inactive
8	FoxP (Forkhead box P)	2	-0.392	-0.269	0.322	inactive
9	FoxP (Forkhead box P)	3	-1.09	-0.102	0.975	inactive
10	CG4793	1	1.89	-0.197	1.49	inactive
11	CG7220	1	0.365	1.01	1.95	inactive
12	CG7220	2	0.403	-0.525	0.686	inactive
13	CG7220	3	0.467	1.26	0.277	inactive
14	PIG-Q (Phosphatidylinositol glycan anchor biosynthesis class Q)	1	1.28	-0.785	0.246	inactive
15	Nadk1b (NAD kinase 1b)	1	-0.788	-1.02	-2.77	inactive
16	Nadk1b (NAD kinase 1b)	2	1.18	-0.444	0.537	inactive
17	Nadk1b (NAD kinase 1b)	3	-1.64	-0.233	-1.02	inactive
18	CG31008	1	0.0859	0.0265	0.469	inactive
19	CG31008	2	-0.481	-1.43	-0.972	inactive
20	CG2187	1	-3.39	0.172	-0.547	inactive
21	CG2187	2	1.07	0.0507	1.01	inactive
22	ed (echinoid)	1	-3.53	0.15	-1.66	active
23	ed (echinoid)	2	-5.66	0.646	-0.564	inactive
24	ed (echinoid)	3	0.687	0.963	-0.116	inactive
25	ed (echinoid)	4	1	0.73	-0.429	inactive
26	CG30265	1	-1.97	-1.65	0.116	inactive
27	CG32572	1	-0.222	0.175	-0.183	inactive
28	CG32572	2	-0.0543	-0.0664	0.00369	inactive
29	CG32572	3	0.994	1.64	1.31	inactive
30	CG3032	1	0.403	-1.18	-0.464	inactive
31	CG3032	2	0.45	0.538	-0.174	inactive
32	CG46491	1	0.212	0.33	0.91	inactive
33	CG46491	2	0.12	0.254	-0.454	inactive
34	pea (peanuts)	1	0.962	3.03	2.67	active
35	pea (peanuts)	2	-1.71	1.52	1.09	inactive
36	CG14104	1	0.284	0.118	0.526	inactive
37	CG11474	1	-3.85	0.318	-0.0575	inactive
38	Ass + CG31286	1	-1	-1.4	-1.03	inactive
39	CG34200	1	0.154	0.144	-0.052	inactive
40	CG18233	1	0.97	-1.27	1.02	inactive
41	Psf2 (Partner of Sld Five 2)	1	0.493	-5.45	0.863	inactive
42	Cht4 (Chitinase 4)	1	0.447	0.739	0.00916	inactive
43	CG14609	1	-0.0647	0.0498	-0.413	inactive
44	rpr (reaper)	1	0.843	0.054	1.9	inactive
45	Lhr (Lethal hybrid rescue)	1	-0.125	-1.08	-2.3	inactive
46	Lhr (Lethal hybrid rescue)	2	-0.149	-1.23	-0.955	inactive
47	Jhbp6 (Juvenile hormone binding protein 6)	1	0.0695	0.709	-0.325	inactive
48	Jhbp6 (Juvenile hormone binding protein 6)	2	0.194	0.419	-1.3	inactive
49	CG10958	1	-0.206	-1.61	-0.021	inactive
50	CG10958	2	-1.08	-0.447	0.214	inactive

Continued (9 carried over from the part before).
no.	gene knocked down	reagent no.	Wolbachia per cell robust z, rep 1	Wolbachia per cell robust z, rep 2	Wolbachia per cell robust z, rep 3	call
42	Cht4 (Chitinase 4)	1	0.447	0.739	0.00916	inactive
43	CG14609	1	-0.0647	0.0498	-0.413	inactive
44	rpr (reaper)	1	0.843	0.054	1.9	inactive
45	Lhr (Lethal hybrid rescue)	1	-0.125	-1.08	-2.3	inactive
46	Lhr (Lethal hybrid rescue)	2	-0.149	-1.23	-0.955	inactive
47	Jhbp6 (Juvenile hormone binding protein 6)	1	0.0695	0.709	-0.325	inactive
48	Jhbp6 (Juvenile hormone binding protein 6)	2	0.194	0.419	-1.3	inactive
49	CG10958	1	-0.206	-1.61	-0.021	inactive
50	CG10958	2	-1.08	-0.447	0.214	inactive
51	BomS6 (Bomanin Short 6)	1	0.00728	0.962	-1.13	inactive
52	BomS6 (Bomanin Short 6)	2	-0.114	0.754	0.148	inactive
53	zormin	1	-1.19	-1.76	-0.773	inactive
54	zormin	2	0.807	1.2	0.444	inactive
55	zormin	3	0.0933	-0.552	0.513	inactive
56	zormin	4	0.709	0.389	0.711	inactive
57	zormin	5	-0.297	0.313	0.532	inactive
58	zormin	6	-0.984	0.176	0.862	inactive
59	Pomp	1	2.17	1.67	2.31	active
60	Pomp	2	-0.0754	-1.36	-1.11	inactive
61	CG9672	1	0.0801	0.874	-2.81	inactive
62	CG2614	1	0.49	-1.52	-1.34	inactive
63	trp (transient receptor potential)	1	-4.17	-0.181	0.27	inactive
64	pdm2 (POU domain protein 2)	1	0.604	0.25	0.977	inactive
65	pdm2 (POU domain protein 2)	2	0.0561	-1	-3.85	inactive
66	H (Hairless)	1	0.136	0.394	-4.85	inactive
67	H (Hairless)	2	0.206	0.412	1.84	inactive
68	Tpt (tRNA 2'-phosphotransferase)	1	0.462	0.138	0.19	inactive
69	yl (yolkless)	1	-0.243	0.302	0.381	inactive
70	yl (yolkless)	2	-0.42	0.385	-0.0626	inactive
71	schuy (schumacher-levy)	1	0.672	1.62	-0.243	inactive
72	schuy (schumacher-levy)	2	1.04	-0.0389	-0.989	inactive
73	CG13312	1	-2.77	1.39	0.652	inactive
74	CG13312	2	-1.94	0.0234	-0.687	inactive
75	CG5149	1	-0.775	-0.0376	0.994	inactive
76	CG5149	2	1.77	1.25	1.33	inactive
77	CG12448	1	-2.16	0.272	0.271	inactive
78	CG34205	1	-0.621	-1.89	-1.45	inactive
79	CG34205	2	-2.3	-2.17	-0.775	inactive
80	CG14339	1	-1.74	-0.918	-0.589	inactive
81	CG14339	2	-0.605	-1.59	-1.77	inactive
82	CG31788	1	1.16	-0.107	-0.0727	inactive
83	CG42554	1	-0.0468	1.06	0.487	inactive
84	CG8353	1	0.331	0.373	-0.317	inactive
85	CG8353	2	-0.878	-0.667	0.669	inactive
86	kek4 (kekkon 4)	1	-0.452	-1.49	-0.902	inactive
87	CG32453	1	0.309	-1.13	0.516	inactive
